Share of PSTVd loop 15 variants by leaf site

The pool varies loop 15 of the PSTVd intermediate strain in the pattern GGAAACCGNNNNNNC; wild type is GGAAACCGCUACUAC (upper and lower strand joined, each 5' to 3', the first 7 letters being the upper strand, closing pairs included).

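A pool of all variants was put on leaves of three Nicotiana benthamiana plants. Progeny were sequenced from the inoculated region (day 5), the margin of the inoculated leaf (day 10) and systemic leaves (day 12).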

Numbers give reads per thousand; 0 = not seen among the reads, higher = more abundant. Each value is the mean of three plants. "Pool" is the share in the plasmid pool used as inoculum, on the same scale. The inoculated region was read from the minus strand, the other sites from the plus strand. IR is the inoculated region, LM the leaf margin, Sys the systemic leaves. With 43,870-66,106 reads a sample, very low values are single reads.

For GGAAACCGGGGAGAC (pool 0.128) the result was IR 0.0523; LM 0.00668; Sys 0. GGAAACCGACAAAGC (pool 0.192) read IR 0.0725; LM 0.0241; Sys 0. For GGAAACCGAGGCACC (pool 0.304) the result was IR 0.110; LM 0; Sys 0. With GGAAACCGGAGGACC (pool 0.224) the assay gave IR 0.125; LM 0.00668; Sys 0. GGAAACCGAAGACUC (pool 0.176) gave IR 0.0906; LM 0.00668; Sys 0. GGAAACCGUAUGACC (pool 0.256) gave IR 0.0876; LM 0.00742; Sys 0. For GGAAACCGUGGCAAC (pool 0.176) the result was IR 0.0974; LM 0.0236; Sys 0.00537. GGAAACCGGCCUUUC (pool 0.208) gave IR 0.0624; LM 0.0175; Sys 0. With GGAAACCGAGCAAAC (pool 0.288) the assay gave IR 0.213; LM 0.0134; Sys 0.0130.

GGAAACCGCACACUC (pool 0.256) read IR 0.0805; LM 0.0121; Sys 0. With GGAAACCGAAAGCGC (pool 0.272) the assay gave IR 0.0920; LM 0; Sys 0. With GGAAACCGGUAACUC (pool 0.400) the assay gave IR 0.121; LM 0.0262; Sys 0.00537. For GGAAACCGUCUCCUC (pool 0.288) the result was IR 0.140; LM 0.00668; Sys 0.0107. With GGAAACCGCCAGACC (pool 0.128) the assay gave IR 0.119; LM 0.00668; Sys 0. With GGAAACCGGUAUUAC (pool 0.224) the assay gave IR 0.297; LM 0.162; Sys 0.108. GGAAACCGCAAACUC (pool 0.240) gave IR 0.0773; LM 0.0254; Sys 0. For GGAAACCGUUCGAAC (pool 0.256) the result was IR 0.301; LM 0.138; Sys 0.0433. GGAAACCGGGUACGC (pool 0.224) read IR 0.112; LM 0; Sys 0.0130.

GGAAACCGACCAGUC (pool 0.304) gave IR 0.124; LM 0.0134; Sys 0.00537. With GGAAACCGACCUGAC (pool 0.272) the assay gave IR 0.0803; LM 0; Sys 0. For GGAAACCGAUAACGC (pool 0.208) the result was IR 0.111; LM 0.0128; Sys 0. For GGAAACCGCUUACGC (pool 0.160) the result was IR 0.128; LM 0.0134; Sys 0. GGAAACCGCACGUAC (pool 0.240) gave IR 0.376; LM 0.0711; Sys 0.103. GGAAACCGACGUACC (pool 0.256) read IR 0.228; LM 0; Sys 0. GGAAACCGUCGAAGC (pool 0.112) gave IR 0.0824; LM 0.0121; Sys 0.00537. With GGAAACCGCAAGGCC (pool 0.176) the assay gave IR 0.136; LM 0.00539; Sys 0. GGAAACCGCCGACAC (pool 0.192) gave IR 0.357; LM 0.103; Sys 0.0268.

GGAAACCGAGGAGAC (pool 0.256) read IR 0.0641; LM 0.00742; Sys 0. GGAAACCGCCCACAC (pool 0.208) gave IR 0.254; LM 0.103; Sys 0.0107. GGAAACCGAGGAUAC (pool 0.208) read IR 0.470; LM 0.0934; Sys 0.0774. With GGAAACCGCGGGACC (pool 0.272) the assay gave IR 0.0964; LM 0.0121; Sys 0. With GGAAACCGGGGCGGC (pool 0.288) the assay gave IR 0.0965; LM 0.0382; Sys 0.

Wild type was 33.9 per thousand in the pool and the most common sequence in every sample (inoculated region 202, 200, 159; leaf margin 724, 746, 710; systemic leaves 856, 883, 880). Sequences that differ at fixed positions probably stem from PCR or sequencing errors, and defective variants can be carried along by functional ones.

The measurements come from Wu et al. 2024 (doi:10.1371/journal.ppat.1012142).